Measurements from article PMC10478095, “Mycobacterium tuberculosis PE/PPE proteins enhance the production of reactive oxygen species and formation of neutrophil extracellular traps” (Frontiers in Immunology, 2023).

Target: T1, PPE26 (Rv1789) from Mycobacterium tuberculosis (Mycobacterium tuberculosis H37Rv, UniProt Q79FK6 1-393)
T1 sequence: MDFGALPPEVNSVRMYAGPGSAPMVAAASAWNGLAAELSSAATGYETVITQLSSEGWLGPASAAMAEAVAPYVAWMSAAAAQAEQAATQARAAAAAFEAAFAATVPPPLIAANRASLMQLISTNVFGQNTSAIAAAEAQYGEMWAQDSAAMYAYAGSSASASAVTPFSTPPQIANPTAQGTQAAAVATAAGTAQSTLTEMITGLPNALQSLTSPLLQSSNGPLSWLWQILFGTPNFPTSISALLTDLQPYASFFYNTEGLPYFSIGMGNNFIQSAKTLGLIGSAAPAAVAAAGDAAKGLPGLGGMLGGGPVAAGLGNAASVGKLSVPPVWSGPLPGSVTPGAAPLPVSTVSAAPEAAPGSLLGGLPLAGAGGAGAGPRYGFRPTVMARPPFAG
Assay: BLI
Conditions: both partners purified

B1: PE31 (Rv3477) from Mycobacterium tuberculosis (natural protein)
chain: MSFTAQPEMLAAAAGELRSLGATLKASNAAAAVPTTGVVPPAADEVSLLLATQFRTHAATYQTASAKAAVIHEQFVTTLATSASSYADTEAANAVVTG
B1 was tested, and the Kd was 2700 ± 620 nM.
